For one compound, inhibition results are on record in PubChem BioAssay AID504862 (Sanford-Burnham Center for Chemical Genomics, 2011).

Only a part is listed here, and it is no random draw. The source made the active and inactive calls.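 The calls were made as follows: active = average inhibition reaching 50% or more with the compound at 20 µM; inactive = the rest.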

The assay relates to diaphorase (Clostridium kluyveri). Description: diaphorase inhibitors and chemical oxidizers, confirmation, counter-screen for P. falciparum G6PD inhibitor project, biochemical, fluorescence intensity, 10 µM NADPH (AID 504862).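 Also: resorufin red fluorescence formed as diaphorase reduces resazurin using NADPH; 0% = DMSO with enzyme and 100% = DMSO without enzyme.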 Conditions: diaphorase-coupled resazurin reduction, NADPH 10 uM, at 20 µM, hits give high values.

`CN(C)C(=O)c1cc([N+](=O)[O-])cc2c1-c1c(cc([N+](=O)[O-])cc1[N+](=O)[O-])C2=O`: the inhibition is active: 82.7%.

As a reminder, the inhibition is the change of the read-out against control, counted positive when it falls.
